Measured values from several laboratories, pooled; numbers as filed in NIAID ChemDB.

All rows: whole-cell or culture tests; species: Candida albicans; read-out: MIC

An empty or dashed field is not shown.

compound | strain | value
Nc1ncnc2c1ncn2[C@@H]1O[C@H](C(=O)O)[C@@H](NC(=O)Cc2ccccc2)[C@H]1O | FP633 | >100 µg/mL
Clc1ccc(/C(Cn2ccnc2)=N/OCc2ccccc2)c(Cl)c1 | 3M | 8 µg/mL
Cc1c(S(=O)(=O)c2ccccc2)[n+](=O)c2ccccc2n1[O-] | Clinical isolate 6 | 7.8 µg/mL
O=C(Nc1ccc(C(F)(F)F)cc1)c1ncccc1O | ATCC 44859 | 125 µM
C(=C\c1cc2ccc(C3=NCCN3)cc2[nH]1)/c1cc2ccc(C3=NCCN3)cc2[nH]1 |  | >60 µg/mL
Cc1cc(C)cc(/C=C2\SC(=O)N(CCC(=O)Nc3ccccc3O)C2=O)c1 |  | 25 µg/mL
C[C@H](n1nnc(CCN2CCN(c3ccc([N+](=O)[O-])cc3)CC2)n1)[C@](O)(Cn1cncn1)c1ccc(F)cc1F | V-01-191A-261 (resistant) | 4 µg/mL
C[C@@H](n1cnc2cc(OCC(F)(F)C(F)F)ccc2c1=O)[C@](O)(Cn1cncn1)c1ccc(F)cc1F | 60 strains | ≤0.03 µg/mL
O=C(Nc1ccc(F)cc1)c1ncccc1O | ATCC 44859 | 125 µM
CCS(=O)c1nnc(Cc2cc([N+](=O)[O-])ccc2-c2ncc[nH]2)s1 | ATCC 10231 | 25 µg/mL
CCCCOc1ccccc1N1CCN(CCc2nnnn2C(C)C(O)(Cn2cncn2)c2ccc(F)cc2F)CC1 |  | 1 µg/mL
COc1ccc2c(Cc3ccc(C(C)(C)C)cc3)c3[n+](cc2c1OC)CCc1cc2c(cc1-3)OCO2 | ATCC11651 | 3.13 µg/mL
Cc1c(S(=O)(=O)c2ccccc2)[n+](=O)c2cc(Cl)ccc2n1[O-] | Clinical isolate 1 | 62.5 µg/mL
CS(=O)(=O)c1nnc(Cc2cc([N+](=O)[O-])ccc2-c2ncc[nH]2)s1 | ATCC 10231 | 0.78 µg/mL
CS(=O)C[C@@H](N)C(=O)N[C@H]1[C@@H](O)[C@H](n2cnc3c(N)ncnc32)O[C@@H]1C(=O)O | FP633 | >100 µg/mL
C[C@@H](n1cnc2cc(Cl)ccc2c1=O)[C@](O)(Cn1cncn1)c1ccc(Cl)cc1Cl | 406 strains | ≤0.03 µg/mL
Clc1ccc(C(Cn2ccnc2)OCc2ccc(-c3ccccc3)cc2)c(Cl)c1 | CA12 | 128 µg/mL
O/N=C(\c1ccc(Cl)cc1)c1cc2ccccc2o1 |  | 4 µg/mL
N=C(N)c1ccc2cc(/C=C/c3cc4ccc(C(=N)N)cc4o3)oc2c1 |  | 60 µg/mL
C[C@@H](n1cnc2cc(N3CCOCC3)ccc2c1=O)[C@](O)(Cn1cncn1)c1ccc(F)cc1F | 406 strains | 0.15 µg/mL
CCC(C)CC(C)CCCCCCCCC(=O)N[C@H]1C[C@@H](O)[C@H](NCCN)NC(=O)[C@@H]2[C@@H](O)CCN2C(=O)[C@H]([C@H](O)CCN)NC(=O)[C@H]([C@H](O)[C@@H](O)c2ccc(O)cc2)NC(=O)[C@@H]2C[C@@H](O)CN2C(=O)[C@H]([C@@H](C)O)NC1=O | MY1585 | 0.25 µg/mL
CCCCOc1ccccc1N1CCN(CCc2nnn(C(C)C(O)(Cn3cncn3)c3ccc(F)cc3F)n2)CC1 | V-01-191A-261 (resistant) | 2 µg/mL
N#CC(CC(=O)O)C(N)C(=O)O | 83-2-14 | 0.8 µg/mL
Cc1ccc(Cl)c(NC(=O)CCN2C(=O)S/C(=C\c3cccc(O)c3)C2=O)c1 |  | 12.5 µg/mL
Cc1c(Cl)[n+](=O)c2cc(Cl)ccc2n1[O-] | Clinical isolate 11 | 7.8 µg/mL
Clc1ccc(/C(Cn2ccnc2)=N\OCc2ccccc2)cc1 | 5M | 32 µg/mL
O=C(Nc1nc2ccc(NC(=O)[C@@H]3CCC[C@H](NCc4ccc5ccccc5c4)C3)cc2s1)C1CCCC1 | ATCC 24433 | 0.78 µM
O=C(Nc1ccc([N+](=O)[O-])cc1)c1ccccc1O | ATCC 44859 | 62.5 µM
Clc1ccc(C(Cn2ccnc2)OC/C=C/c2ccccc2)c(Cl)c1 | CA6 | 4 µg/mL
COc1cc(O)c2c(c1)C(=O)c1c(cc3c(c1O)-c1c(cc(C)c(C(=O)NC(CO)C(=O)O)c1O)[C@H](OC1OC(C)C(N(C)C)C(OC4OCC(O)C(O)C4O)C1O)[C@H]3O)C2=O | ATCC 32354 (B311) | 6.3 µg/mL
O=C(CCN1C(=O)S/C(=C\c2cccc(O)c2)C1=O)Nc1ccccc1 |  | 12.5 µg/mL
N=C(N)c1ccc(/C=C/c2cc3ccc(C(=N)N)cc3[nH]2)cc1 |  | 3 µg/mL
CCCS(=O)(=O)c1nnc(Cc2cc([N+](=O)[O-])ccc2-c2ncc[nH]2)s1 | ATCC 10231 | 6.25 µg/mL
C[C@@H](n1cnc2cc(OCCF)ccc2c1=O)[C@](O)(Cn1cncn1)c1ccc(F)cc1F | 406 strains | 0.07 µg/mL
Clc1ccc(C(Cn2ccnc2)OCc2ccc(-c3ccccc3)cc2)cc1 | 5M | >128 µg/mL
CCCCCCCCOc1ccc(-c2ccc(C(=O)NC3CC(NCCN)CNC(=O)[C@@H]4[C@@H](O)[C@@H](C)CN4C(=O)[C@@H](CO)NC(=O)[C@H]([C@H](O)Cc4ccccc4)NC(=O)[C@@H]4C[C@@H](O)CN4C(=O)[C@H]([C@@H](C)O)NC3=O)cc2)cc1 | K1 | 0.5 µg/mL
N=C(N)c1ccc(NN=Nc2ccc(-c3cc4cc(C(=N)N)ccc4o3)cc2)cc1 |  | >60 µg/mL
Clc1ccc(/C(Cn2ccnc2)=N/OCc2ccccc2)cc1 | CA7 | 32 µg/mL
CCSc1nnc(-c2ccc([N+](=O)[O-])cc2)s1 | ATCC 10231 | >100 µg/mL
C(=C\c1cc2cc(C3=NCCN3)ccc2o1)/c1ccc(Oc2ccc(C3=NCCN3)cc2)cc1 |  | >60 µg/mL
c1ccc(CO/N=C(/Cn2ccnc2)c2ccccc2)cc1 | CA7 | 128 µg/mL
C[C@@H](n1cnc2cccc(Cl)c2c1=O)[C@](O)(Cn1cncn1)c1ccc(F)cc1F | 406 strains | 0.15 µg/mL
Nc1ncnc2c1ncn2[C@@H]1O[C@H](C(=O)O)[C@@H](NC(=O)C(N)CSCc2cccs2)[C@H]1O | FP633 | 0.8 µg/mL
Cc1ccc(C(Cn2ccnc2)OC/C=C/c2ccccc2)cc1 | CA2 | 128 µg/mL
N=C(N)c1ccc(-c2cc3cc(C(=N)N)ccc3s2)cc1 |  | 60 µg/mL
Fc1ccc(CCCCn2c3c(c4cc(F)ccc42)CNCC3)cc1 | ATCC 90028 | 0.5 µg/mL
CC(C)(C)c1ccc(COC(Cn2ccnc2)c2ccc(Cl)cc2)cc1 | CDCB385 | >128 µg/mL
Cc1ccc(NC(=O)CCN2C(=O)S/C(=C\c3ccc(C)cc3C)C2=O)cc1 |  | 50 µg/mL
N=C(N)c1ccc2[nH]c(/C=C/c3cc4cc(C(=N)N)ccc4o3)cc2c1 |  | 30 µg/mL
CCO/N=C(\c1ccccc1)c1cc2ccccc2o1 |  | 4 µg/mL
Fc1ccc(/C(Cn2ccnc2)=N/OCc2ccccc2)cc1 | CA6 | 32 µg/mL
C[C@H](n1nnc(CCN2CCN(c3ccccc3Cl)CC2)n1)[C@](O)(Cn1cncn1)c1ccc(F)cc1F | V-01-191A-261 (resistant) | 8 µg/mL
Cc1c(Sc2ccccc2)[n+](=O)c2cc(Cl)ccc2n1[O-] | Clinical isolate 17 | 31.25 µg/mL
C[C@H](n1nnc(CCN2CCN(c3ccc(Cl)cc3)CC2)n1)[C@](O)(Cn1cncn1)c1ccc(F)cc1F |  | 2 µg/mL
O=C(Nc1ccc(Cl)cc1)c1ncccc1O | ATCC 44859 | 62.5 µM
COC(=O)[C@H]1O[C@@H](n2cnc3c(N)ncnc32)[C@H](O)[C@@H]1NC(=O)[C@@H](N)Cc1ccc(OC)cc1 | FP633 | >100 µg/mL
O=C(O/N=C(\c1ccc(Cl)cc1)c1cc2ccccc2o1)c1ccccc1 |  | 16 µg/mL
Cc1c(Sc2ccccc2)[n+](=O)c2cc(C(F)(F)F)ccc2n1[O-] | Clinical isolate 18 | 15.6 µg/mL
Nc1ncnc2c1ncn2[C@@H]1O[C@H](C(=O)O)[C@@H](NC(=O)[C@H](O)c2ccccc2)[C@H]1O | FP633 | >100 µg/mL
Clc1ccc(/C(=N\OCc2ccccc2)c2cc3ccccc3o2)cc1 |  | 32 µg/mL

Again, the opening 7 rows:

compound	strain	value
Nc1ncnc2c1ncn2[C@@H]1O[C@H](C(=O)O)[C@@H](NC(=O)Cc2ccccc2)[C@H]1O	FP633	>100 µg/mL
Clc1ccc(/C(Cn2ccnc2)=N/OCc2ccccc2)c(Cl)c1	3M	8 µg/mL
Cc1c(S(=O)(=O)c2ccccc2)[n+](=O)c2ccccc2n1[O-]	Clinical isolate 6	7.8 µg/mL
O=C(Nc1ccc(C(F)(F)F)cc1)c1ncccc1O	ATCC 44859	125 µM
C(=C\c1cc2ccc(C3=NCCN3)cc2[nH]1)/c1cc2ccc(C3=NCCN3)cc2[nH]1		>60 µg/mL
Cc1cc(C)cc(/C=C2\SC(=O)N(CCC(=O)Nc3ccccc3O)C2=O)c1		25 µg/mL
C[C@H](n1nnc(CCN2CCN(c3ccc([N+](=O)[O-])cc3)CC2)n1)[C@](O)(Cn1cncn1)c1ccc(F)cc1F	V-01-191A-261 (resistant)	4 µg/mL

Neighbouring rows are from separate reports.